A mixed list of measured activities; the numbers were collected in NIAID ChemDB.

All rows: growth or infection tests; species: Hepatitis B virus; endpoint: EC50

a–b is a range or a potency band. Neighbouring rows are from separate reports. ECn: concentration that inhibits the pathogen or its effect by n%. Blank or dashed fields: not listed here.

smiles,strain,read by,result
CN1[C@H](C(=O)Nc2ccc(F)c(Cl)c2)C[C@H](c2ncc(-c3cn(C)cn3)s2)NS1(=O)=O,Genotype D,PCR,0.0101 µM
COC(=O)c1cc2ccc(N(C)C)cc2[nH]1,-,-,0.43 µg/mL
Cc1cn([C@@H]2O[C@H](CO)[C@](O)(C(F)(F)F)[C@H]2O)c(=O)[nH]c1=O,-,-,≥100 µM
COc1cc(N)cc2[nH]c(C(C)=O)cc12,-,-,0.98 µg/mL
C=C1[C@H](CO)[C@H]1Cn1cnc2c(Cl)nc(N)nc21,-,-,>100 µM
Nc1nc(Cl)c(Cl)c2c1ncn2[C@@H]1O[C@H](CO)[C@@H](O)[C@H]1O,-,-,>10 µM
C[C@]1(CO)CO[C@@H](n2ccc(=O)[nH]c2=O)C1,-,-,>100 µM
CC1=CC[C@]2(C)CC[C@]3(C)C(=O)C=C(C(C)C)[C@@H]3[C@H]2CC1,-,-,>100 µg/mL
O=c1[nH]c(=O)n([C@H]2O[C@@H](CO)[C@H](O)[C@@H]2O)cc1I,-,-,>100 µM
COc1cc(N)cc2[nH]cc(C(=O)O)c12,-,-,0.64 µg/mL
Nc1nc(F)cc2c1ncn2[C@@H]1O[C@H](CO)[C@@H](O)[C@H]1O,-,-,>10 µM
Nc1ccn([C@@H]2O[C@H](CO)[C@](O)(C(F)(F)F)[C@H]2O)c(=O)n1,-,-,≥100 µM
CC1=CC[C@]2(C)CC(=O)[C@]3(C)C(=O)C=C(C(C)C)[C@@H]3[C@H]2CC1,-,-,>100 µg/mL
COC(=O)c1cc2c(OC)cc(N)cc2s1,-,-,8.15 µg/mL
C[C@]1(CO)CO[C@@H](n2cnc3c(N)ncnc32)C1,-,-,>100 µM
COc1ccc(CN2C[C@H](O)Cn3c(c4n(c3=O)CCN(C(=O)c3ccc(Br)c(Cl)c3)C4)C2=O)cc1,-,PCR,0.1–5 µM
C=C1[C@H](CO)[C@H]1Cn1cnc2c(Cl)ncnc21,-,-,>100 µM
Nc1ccn([C@@H]2CC[C@H](CO)O2)c(=S)n1,-,-,>100 µM
C=C1[C@H](CO)[C@H]1Cn1cnc2c(=O)[nH]cnc21,-,-,>100 µM
C[C@]1(CO)CO[C@H](n2cnc3c(=O)[nH]c(N)nc32)C1,-,-,>100 µM
CC1O[C@@H]2C[C@@H]3[C@@H]4C5=C(C(=O)OCC5=C[C@]13C1=C2C(=O)OCC1)[C@@H](O)[C@]12C(=O)OCCC1=C(C=O)[C@@H](C)O[C@@H]42,-,PCR,2.58 µM
C[C@]1(CO)CO[C@@H](n2cc(F)c(N)nc2=O)C1,-,-,>100 µM
Nc1ncc(Cl)c2c1ncn2[C@@H]1O[C@H](CO)[C@@H](O)[C@H]1O,-,-,>10 µM
CC1O[C@@H]2C[C@H]3[C@H]4C5=C(C(=O)OCC5=C[C@]13C1=C2C(=O)OCC1)[C@@H](O)O[C@@H]4c1cccc2c1CCOC2=O,-,PCR,2.12 µM
Nc1nc(Cl)c(F)c2ncn([C@@H]3O[C@H](CO)[C@@H](O)[C@H]3O)c12,-,-,>10 µM
O=C(NCc1ccccc1-c1ncco1)c1c2n(c(=O)n1-c1ccc(OCC(F)(F)F)cc1)CCN(C(=O)c1ccc(Br)c(Cl)c1)C2,-,PCR,0.1–0.5 µM
Nc1[nH]c(=O)c2ncn([C@@H]3O[C@H](CO)[C@@H](O)[C@H]3O)c2c1Br,-,-,>10 µM
Cc1c(O)cc2c(c1O)C(=O)[C@H](Cc1ccc(O)cc1)CO2,-,ELISA / antigen,3.82 µg/mL

The last 3 rows once more:

smiles | strain | read by | result
O=C(NCc1ccccc1-c1ncco1)c1c2n(c(=O)n1-c1ccc(OCC(F)(F)F)cc1)CCN(C(=O)c1ccc(Br)c(Cl)c1)C2 | - | PCR | 0.1–0.5 µM
Nc1[nH]c(=O)c2ncn([C@@H]3O[C@H](CO)[C@@H](O)[C@H]3O)c2c1Br | - | - | >10 µM
Cc1c(O)cc2c(c1O)C(=O)[C@H](Cc1ccc(O)cc1)CO2 | - | ELISA / antigen | 3.82 µg/mL